For this series, the system named is porcine IgG. Description: N-terminal Edman sequencing of the 32 kDa IgG degradation product. The class given is biochemical, pig.

B1: IgdEpseudoporcinus: IgdE isolated from S. pseudoporcinus strain ATCC BAA-1381, SEQ ID NO: 9 (protein, listed as Streptococcus pseudoporcinus)
chain: RENENVRQLQSENKQMKAVNLQEFSEKLKGEIAENQQFHIFKLGLNNYYIGGVRINELSDLAKNHDFIMIDNRATHNKYGVPHIIIMNKDDVIVHNQEDYNKEMAELTFAGDKPIQSDSYLPQKKRIHALFEIGLDSNRRQLLNAAGLKTPENSVIELDTFKIYSHGLAVDNKYYDEYSHFNNNTNVNITKQRFTENDNLIHNLITTSTAKDQPTDRDKVKTFVMYVANHTIYDWNAANNAVSNISDVNYYLGSDLFSITERKKAMCVGFSTTAARAFNMLGIPAYVVEGKNAQGVDHATARVYYNGKWHTIDGTGFINGNRTRSTLYTESHFRSVGEDSYQLVGLNEDIPFDRNYMKIDKVYEEWAPKQKTADLLLVNKDKSLVGLDRVAYVEPVYVDKNRQDALTQIYKKLKETMESSSKKNPSSGGFSSLLGSASSDIAKLEGSSQLTQEEYDKIHRSMTSILTFFAQLDKDAAEAFEKGNDYKNYLATTKHAQ
Consider B1, for which the “N-terminal sequence of the 32 kDa degradation product of porcine IgG (cleavage site)” value is “CPICPACE”.

B2: IgdEporcinus: IgdE isolated from S. porcinus strain DSM20725, SEQ ID NO: 5 (protein, listed as Streptococcus porcinus)
chain: AVLARENSNSGQLHPEARQIKAVDFQEFSKKLKEEISENQQFHVFKLGMNNYYRSGIRINELNNLATEHDFILVNDHASHKKYDVPHIFIMNKGDVIVPSKEKYDEQMREVKFAGDQPNAQRQRIHALFEIGLDSNKRQLLNAAGLGTAENTLAKVDGFTIYSHGLTVDNKYYEDYIRFNKNENINITKERFTANDNLIHNLITESTAKVQTNDRDKVKAFVMYVANHTIYDWIAANNAVSNISDVNYYLGSDLFSITERKKAMCVGFSTTAARAFNMLGIPAYVVVGKNAQGVDHATARAYYNGKWHTIDGTGFINDKASRSTIYSENHFYSIGEDSYNIVDVNDEQIAFDKNYMKIDKVFEEWAQKQPTADLLLINKDKSLVPSNYVAYVAPVIVDNNRKGSLTQIYQNLKQVMESSSQKASLTSLLNTATADIAKLQTSSQLTQEDYNQIQNSMKSVLSFFWQLDKDSATNFENSEDYKKYLTETKNAGN
Consider B2, for which the “N-terminal sequence of the 32 kDa degradation product of porcine IgG (cleavage site)” value was “CPICPACE”.
